For experiment [1], the system named is guinea pigs. The experiment in a line: CPV constructs, third experiment: anti peptide antibody titers in ELISA. To be noted: serum anti-peptide antibody titer, -log(dilution factor); 100 µg; CFA; 8 weeks. In kind it is in vivo.
The subject of experiment [2] is guinea pigs. The experiment in a line: CPV constructs, first experiment: anti peptide antibody titers in ELISA. The format is in vivo. To be noted: compared with the peptide conjugated to KLH. On the technique in general: ELISA stands for enzyme-linked immunosorbent assay.

“And” between values parts separate entries of the source, which are not always exact repeats. Equal entries are not always repeated.

Consider `CCCCCCCCCCCCCCCC(=O)N[C@@H](CS)C(=O)N[C@@H](CO)C(=O)N[C@@H](CC(=O)O)C(=O)NCC(=O)N[C@@H](C)C(=O)N[C@H](C(=O)N[C@@H](CCC(N)=O)C(=O)N1CCC[C@H]1C(=O)N[C@@H](CC(=O)O)C(=O)NCC(=O)NCC(=O)N[C@@H](CCC(N)=O)C(=O)N1CCC[C@H]1C(=O)N[C@@H](C)C(=O)N[C@H](C(=O)N[C@@H](CCCNC(=N)N)C(=O)N[C@@H](CC(N)=O)C(=O)N[C@@H](CCC(=O)O)C(=O)N[C@@H](CCCNC(=N)N)C(=O)N[C@@H](C)C(=O)N[C@H](C(=O)NCC(N)=O)[C@@H](C)O)C(C)C)C(C)C`, for which the “titer 8 wpv” value in the experiment with guinea pigs [1] is 2.9 and 3.4 and 2.3. Besides, the “antibody response / immunogenic effect in words” value in the experiment with guinea pigs [2] is reported as “lower immunogenic effect”.

For the origin of these results see EP0912195B1, “VACCINE COMPRISING ANTIGENS BOUND TO CARRIERS THROUGH LABILE BONDS” (PEPSCAN SYSTEMS B.V., priority 1996, dated 1997).
